Compound potency records, mixed from different reports. Data source: NIAID ChemDB in PubChem.

Shared fields: growth or infection tests; agent: Candida krusei

MIC50, MIC90 and the like: level of inhibition, or share of isolates inhibited.

smiles	read-out	strain	conditions	method	tested at	result
C[C@H]1[C@H](O)[C@@H](C)/C=C/C=C/C=C/C=C/C=C/C=C/C=C/[C@H](O[C@@H]2O[C@H](C)[C@@H](O)[C@H](N)[C@@H]2O)C[C@@H]2O[C@](O)(C[C@@H](O)C[C@@H](O)CC[C@H](O)[C@@H](O)C[C@@H](O)CC(=O)O[C@H]1C)C[C@H](O)[C@H]2C(=O)O	inhibition	E28		broth dilution	1 µM	80%
O=Cc1cc(O)ccc1O	EC50	PYCC 3341		broth dilution / turbidity		0.82 µM
COc1cc(C2CC(=O)c3c(O)cc(O)cc3O2)ccc1OCC=C(C)C	zone			agar diffusion / agar	100 µg/mL	0 mm
O=C(O)/C=C/c1ccccc1	EC50	PYCC 3341		broth dilution / turbidity		0.29 µM
CCC(C)n1ncn(-c2ccc(N3CCN(c4ccc(OC[C@H]5CO[C@](Cn6cncn6)(c6ccc(Cl)cc6Cl)O5)cc4)CC3)cc2)c1=O	MIC50	17 isolates				1 µg/mL
C[C@@H]1[C@H](O)[C@@H](C)/C=C/C=C/CC/C=C/C=C/C=C/C=C/C(O[C@H]2O[C@H](C)[C@@H](O)[C@H](N)[C@@H]2O)CC2O[C@](O)(CC(O)C(O)CCC(O)CC(O)CC(O)CC(=O)O[C@H]1C)CC(O)C2C(=O)O	zone			agar diffusion / agar	100 µg/mL	0 mm
O=[N+]([O-])c1cc(CSc2cccc[n+]2[O-])cc([N+](=O)[O-])c1	EC80	E28	48 h	broth dilution		>500 µM
C=CCc1ccc(OC)c(OC)c1	MIC			broth dilution		1280 µg/mL
COc1cc(C[C@H](C)[C@H](C)Cc2ccc(O)c(O)c2)ccc1O	MIC100	CCC 117-2000		broth dilution		125 µg/mL
O=[N+]([O-])c1ccc(C[Se]c2nnnn2C2CCCCC2)c([N+](=O)[O-])c1	EC80	E28	48 h	broth dilution		>500 µM
Cc1ccc(C(C)C)cc1	MIC			broth dilution		22600 µg/mL
O=[N+]([O-])c1cc(CSc2nnnn2C2CCCCC2)cc([N+](=O)[O-])c1	EC80	E28	48 h	broth dilution		>500 µM
Nc1nc(=O)n([C@H]2CS[C@@H](CO)O2)cc1F	MIC90	17 isolates				64 µg/mL
Oc1ccccc1	MIC			broth dilution		>45260 µg/mL
O=[N+]([O-])c1cc(C[Se]c2nnnn2Cc2ccccc2)cc([N+](=O)[O-])c1	EC80	E28	24 h	broth dilution		>500 µM
COc1ccccc1O	MIC			broth dilution		10 µg/mL
C[C@@H]1[C@H](O)[C@@H](C)/C=C/C=C/CC/C=C/C=C/C=C/C=C/C(O[C@H]2O[C@H](C)[C@@H](O)[C@H](N)[C@@H]2O)CC2O[C@](O)(CC(O)C(O)CCC(O)CC(O)CC(O)CC(=O)O[C@H]1C)CC(O)C2C(=O)O	MIC100	ATCC 40147		broth dilution		64 µg/mL
CC(C)=CCOc1ccc(C2CC(=O)c3c(O)cc(O)cc3O2)cc1	zone			agar diffusion / agar	100 µg/mL	0 mm

For reference, 2 entries again:

smiles,read-out,strain,conditions,method,tested at,result
CCC(C)n1ncn(-c2ccc(N3CCN(c4ccc(OC[C@H]5CO[C@](Cn6cncn6)(c6ccc(Cl)cc6Cl)O5)cc4)CC3)cc2)c1=O,MIC50,17 isolates,,,,1 µg/mL
C=CCc1ccc(OC)c(OC)c1,MIC,,,broth dilution,,1280 µg/mL

Percent inhibition refers to the dose given; in toxicity tests it is the harm to the cells. An empty or dashed field is not shown. Lines come from different laboratories, so protocols vary. Zones are inhibition diameters on agar. ECn: concentration that inhibits the pathogen or its effect by n%.